The supplement of paper PMC9931576
Human monoclonal antibodies against the spike receptor-binding domain (heavy:light variable regions). IC50 against pseudoviruses bearing the spike of naturally observed variants; lower = stronger; >10 µg/ml means not reached at the top dose. No active / inactive call. The stated detection limit is 0.0005 µg/ml; values near or below 0.001 µg/ml lie at the floor of the assay.

B1: BD55-1104 (protein)
chain 1: EVQLVQSGAEVKKPGESLKISCKGSGYSFTTYWTGWVRQVPGKGLEWMGLIYPRDSDARYTPSFEGHVTISADNSINTAYLHWSSLKASDTAIYYCVSAGDTGWRGHADYWGQGTLVTVSS
chain 2: DIQMTQSPSSLSASVGDRVTITCRASLDIRNYLVWFQQKPGTAPKSLIYEASTLQSGVPSRFSGSGSGTDFTLTISSLRPEDFATYYCQQYNTWPFTFGGGTKVEIK
B2: BD55-5880 (protein)
chain 1: EVYLMESGGGLVQPGGSLRLSCAASEFIVSANYMSWVRQAPGKGPEWVSLIFAGGSTFYADSVKGRFTISRDDSKNTLHLQMNSLRAEDTAVYYCARDLGGNGHFDFWGQGTLVTVSS
chain 2: DIQMTQSPSSLSASVGDRVIITCRASQSISNYLNWYQQKPGKAPKLLIYAASSLQSGVPSRFSGSGSGTDFALTISSLQPEDFATYYCQQSYSAPYTFGQGNKLEIK
B3: BD55-5903 (protein)
chain 1: QVHLVQSGAEVKKPGSSVKVSCKASGDTFSSYGLNWVRQAPGQGLEWMGRIIPIFDRTNYAQNFQGRVTITADKSTNTAYMELSSLRSEDTALYYCARDGSCDFWSGYCRNDTFDIWGQGTMVTVSS
chain 2: DIQMTQSPSAMSASVGDRVTITCRASQGINNYLVWFQQKPGKVPKRLIYAASSLQSGVPSRFSGSGSGTEFTLTISSLQPEDFATYYCLHHNSYPWTFGQGTKVEIK
B4: BD55-5886 (protein)
chain 1: QFQLMQSGPEVKKPGASVRVSCKASGYTFPSYGITWVRQAPGQGLEWMAWISVYNGNTNYAQKFQGRVTMTTDTSTSTVYMELRSLRSDDTAVYYCARDNGAYMDFDLRGRGTLVTVSS
chain 2: QSVLTQPPSASGTPGQRVTISCSGGSSNLGINPVNWYQQLPGTAPRLLIFSGFQRPSGVPDRFSGSQSGTSASLAISGLQPEDEADYYCAAWVDSLNGRVFGGGTKLTVL
B5: BD55-5901 (protein)
chain 1: EVQLVESGGALIQPGGSLRLSCAASGFTVSDSYMSWVRQAPGKGLEWVSVIYRGGNTYYADSVWGRFTISRDDSKNTLNLQMNRLRAEDTAMYYCARRYRTSWGLDSWGQGTLVSVSS
chain 2: QSALTQPPSASGSPGQSVTISCTGTSSDVGGYNWVSWYQQHPGKAPKLMIDEVSKRPSGVPDRFSGSKSGNTASLTVSGLQSEDEAYYYCSSYAGSNNLVFGGGTKLTVL
B6: BD55-5840 (protein)
chain 1: QVQLAQSGSELRKPGASVKVSCDTSGHSFTSNAIHWVRQAPGQGLEWMGWINTDTGTPTYAQGFTGRFVFSLDTSARTAYLQISSLKADDTAVFYCARERDYSDYFFDYWGQGTLVTVSS
chain 2: EVVMTQSPASLSVSPGERATLSCRARASLGISTDLAWYQQRPGQAPRLLIYGASTRATGIPARFSGSGSGTEFTLTISSLQSEDSAVYYCQQYSNWPLTFGGGTKVEIK
B7: BD55-5847 (protein)
chain 1: QVQLVQSGAEVKKPGASVKVSCKASGYTFTSFYIHWLRQAPGQGPEWMGMINPSGAITEYSQRFQGRVTLTRDTSTSTVYMELSSLRSEDTAVYYCARDLDAISTGFFDYWGQGTLVTVSS
chain 2: EVVMTQSPATLSVSPGERATLSCRASQSVSSNLAWYQQKPGQAPRLLIYGASTRATGIPARFSGSGSGTEFTLTVSSLQSEDFAVYYCQQYYIWPPLDTFGQGTRLEIK
B8: BD55-5866 (protein)
chain 1: EVQLVESGGGLVKPGGSMRLSCAASGFSFGIYSMNWVRQAPGKGLEWVSFITSSSSYIYYADSVKGRFTISRDNAKNSLYLQMNSLRAEDAAVYYCVRDGRDLLRSFPRRDFDFWGQGTLVTVSS
chain 2: DIQMTQSPSSVSASVGDRVTITCRASQGISSWLAWYQQKPGKAPKLLIYAASSLQSGVPSRFGGSGSGTDFTLTISSLQPEDFATYYCQQANSFPRTFGQGTRLEIK
B9: BD55-5900 (protein)
chain 1: EVQLVESGGGLVQPGGSLRLSCAASGFTFRNYAMHWVRQAPGKGLEYVSSISSNGGLTFYADSVKGRFTISRDNSKNTLYLQMGSLRPEDMAVYYCAREGGVGQQLILYLDYWGQGTPVTVSS
chain 2: DIQMTQSPSSLSASVGDRVTITCRASQTITNYLNWYQQKPGKAPRLLIYAASTLQSGVPSRFSGGGSGTAFTLTINNLQPEDFATYYCQQSYVTPMYTFGQGTKLEIK
B10: BD55-5877 (protein)
chain 1: QVQLVQSGSELKKPGASVKVSCKASGYTFTSFAMNWVRQAPGQEFEWMGWINTNTGNPTYAQGFTGRFVFSLDTSVSTAYLQITSLKTEDTAVYYCARAYMVGGLIKFWFDPWGQGTLVTVSS
chain 2: AIRMTQSPSSLSASTGDRVTITCRASQDINRYLAWYQQQPGKAPKLLIYTASTLQSGVPARFSGSGSGTDFTLTISSLQSEDFATYFCQQYFTYPLLTFGPGTKVDIK
B11: BD55-5874 (protein)
chain 1: EVQLVESGGGLVQPGESLRLSCAASGFPVNRYYISWVRQAPGKTLEWVSVIYRDDSTFSADSVKGRFTISRHSSKNTVYLHMSSLRAEDTAVYYCAGGRHTQVEYDFLTGYGLGAFDIWGQGTMVTVS
chain 2: DIQMTQSPSTLSASVGDRVTITCRASQSISNWLAWYQQKPGKAPNLLIYKASSLESGVPSRFSGSGSGTEFTLTISSLQPDDFATYYCQQYNSYQWTFGQGTKVEIK
B12: BD55-5879 (protein)
chain 1: QVQLQQWGAGLLKPSETLSLTCAVSGGSLGGSLSSYDWSWIRQPPGMGLEWIGKINHRGGVKYNPSLKSRVTMSVDTSKNQFSLKLSSVTAADTAVYYCARHSGYDPLFDYWGQGTLVTVSS
chain 2: DIQMTQSPSTLSASVGGRVTVTCRASQSIGTWLAWYQQKPGKAPNLLIYKASILESGVPSRFSGSGSGTQFTLTISSLQPDDFATYYCQQYNSDSPYTFGQGTKVEIK

molecular target: SARS-CoV-2 Omicron BA.1 spike pseudovirus; assay: pseudovirus neutralization IC50; higher = weaker neutralization
Procedure: (§1)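 Single-round VSV luciferase pseudovirus mixed with antibody dilutions for 1 h and put on Huh-7 cells for about a day; IC50 from the dose curve.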

Binder | pseudovirus neutralization IC50
B1 | 1.7 mg/L
B2 | > 10 mg/L
B3 | 0.0213 mg/L
B4 | > 10 mg/L
B5 | > 10 mg/L
B6 | 0.0044 mg/L
B7 | > 10 mg/L
B8 | > 10 mg/L
B9 | > 10 mg/L
B10 | > 10 mg/L
B11 | > 10 mg/L
B12 | > 10 mg/L

molecular target: SARS-CoV-2 Omicron BA.2 spike pseudovirus; assay: as above
Procedure: as §1

Binder | pseudovirus neutralization IC50
B1 | 0.00492 mg/L
B2 | > 10 mg/L
B3 | 0.0238 mg/L
B4 | > 10 mg/L
B5 | > 10 mg/L
B6 | 0.00512 mg/L
B7 | > 10 mg/L
B8 | > 10 mg/L
B9 | > 10 mg/L
B10 | > 10 mg/L
B11 | > 10 mg/L
B12 | > 10 mg/L

molecular target: SARS-CoV-2 Omicron BA.2.75 spike pseudovirus; assay: as above
Procedure: as §1

Binder | pseudovirus neutralization IC50
B1 | 0.242 mg/L
B2 | > 10 mg/L
B3 | 0.0201 mg/L
B4 | > 10 mg/L
B5 | > 10 mg/L
B6 | 0.246 mg/L
B7 | > 10 mg/L
B8 | > 10 mg/L
B9 | > 10 mg/L
B10 | > 10 mg/L
B11 | > 10 mg/L
B12 | > 10 mg/L

molecular target: SARS-CoV-2 Omicron BA.5 spike pseudovirus; assay: as above
Procedure: as §1

Binder | pseudovirus neutralization IC50
B1 | 0.00378 mg/L
B2 | > 10 mg/L
B3 | > 10 mg/L
B4 | > 10 mg/L
B5 | > 10 mg/L
B6 | 0.00393 mg/L
B7 | > 10 mg/L
B8 | > 10 mg/L
B9 | > 10 mg/L
B10 | > 10 mg/L
B11 | > 10 mg/L
B12 | > 10 mg/L

molecular target: SARS-CoV-2 Omicron BQ.1.1 spike pseudovirus; assay: as above
Procedure: as §1

Binder | pseudovirus neutralization IC50
B1 | 3.03 mg/L
B2 | > 10 mg/L
B3 | > 10 mg/L
B4 | > 10 mg/L
B5 | > 10 mg/L
B6 | 0.651 mg/L
B7 | > 10 mg/L
B8 | > 10 mg/L
B9 | > 10 mg/L
B10 | > 10 mg/L
B11 | > 10 mg/L
B12 | > 10 mg/L

molecular target: SARS-CoV-2 Omicron XBB spike pseudovirus; assay: as above
Procedure: as §1

Binder | pseudovirus neutralization IC50
B1 | > 10 mg/L
B2 | > 10 mg/L
B3 | > 10 mg/L
B4 | > 10 mg/L
B5 | > 10 mg/L
B6 | > 10 mg/L
B7 | > 10 mg/L
B8 | > 10 mg/L
B9 | > 10 mg/L
B10 | > 10 mg/L
B11 | > 10 mg/L
B12 | > 10 mg/L

molecular target: SARS-CoV-2 early D614G spike pseudovirus; assay: as above
Procedure: as §1

Binder | pseudovirus neutralization IC50
B1 | 0.0013 mg/L
B2 | 0.00529 mg/L
B3 | 0.00333 mg/L
B4 | > 10 mg/L
B5 | 0.572 mg/L
B6 | 0.001 mg/L
B7 | > 10 mg/L
B8 | 0.001 mg/L
B9 | > 10 mg/L
B10 | > 10 mg/L
B11 | 0.0641 mg/L
B12 | 1.8 mg/L
